From patent EP2292225A1 (priority 1997, dated 1998)

Legend:
[1] = system: BO54 (smooth muscle) cells; assay: MTT metabolic activity after 24 hours exposure; format: cell-based, baboon; details: overnight recovery period
[2] = system: marker-negative HT29 cells; assay: Protein synthesis (^3H-leucine) after 5 minute pulse exposure; format: cell-based; details: 5 minute exposure; short-term and after 16-18 hours recovery
[3] = system: marker-positive A375 cells; assay: as above; format: cell-based, human
[4] = system: BO54 arterial smooth muscle cells; assay: as above; format: cell-based, baboon; details: 5 minute exposure; for protein synthesis, long-term: recovery period
[5] = system: BO54 marker-positive smooth muscle cells; assay: MTT metabolic activity 48 hours after 5 minute exposure; format: cell-based, baboon; details: 48 hours recovery, conjugates at the lower doses
[6] = system: A375 m/m marker-positive cells; assay: as above; format: cell-based, human; details: 48 hours recovery, conjugates at the lower doses
[7] = system: HT29 marker-negative cells; assay: as above; format: cell-based; details: 48 hours recovery, conjugates at the lower doses

Roridin A
concentration at which inhibitory effects on metabolic activity (MTT) were observed [1]: > 10 ng/mL
inhibition of cellular protein synthesis [2]: dose-response inhibition of cellular protein synthesis
inhibition of protein synthesis, long-term ([3]; 5 minute exposure, 16-18 hour recovery period): manifest even after a 16-18 hour recovery period
inhibition of protein synthesis, short-term ([3]; immediately after the 5-minute pulse treatment): non-specifically inhibitory
protein synthesis, long-term ([4]; 50 ng/ml): 98 % of control
protein synthesis, long-term ([4]; 100 ng/ml): 46 % of control
protein synthesis, long-term ([4]; 200 ng/ml): 27 % of control
protein synthesis, short-term ([4]; 50 ng/ml): 90 % of control
protein synthesis, short-term ([4]; 100 ng/ml): 66 % of control
protein synthesis, short-term ([4]; 200 ng/ml): 60 % of control
metabolic activity over the long-term (MTT) [5]: non-specifically inhibitory
metabolic activity over the long-term (MTT) [6]: non-specifically inhibitory
metabolic activity over the long-term (MTT) [7]: non-specifically inhibitory
